Chains of the proteins cited; added tags and fusions are not shown. Residues count along the entry.
UniProt P9WMR3, 400-815 limits assumed: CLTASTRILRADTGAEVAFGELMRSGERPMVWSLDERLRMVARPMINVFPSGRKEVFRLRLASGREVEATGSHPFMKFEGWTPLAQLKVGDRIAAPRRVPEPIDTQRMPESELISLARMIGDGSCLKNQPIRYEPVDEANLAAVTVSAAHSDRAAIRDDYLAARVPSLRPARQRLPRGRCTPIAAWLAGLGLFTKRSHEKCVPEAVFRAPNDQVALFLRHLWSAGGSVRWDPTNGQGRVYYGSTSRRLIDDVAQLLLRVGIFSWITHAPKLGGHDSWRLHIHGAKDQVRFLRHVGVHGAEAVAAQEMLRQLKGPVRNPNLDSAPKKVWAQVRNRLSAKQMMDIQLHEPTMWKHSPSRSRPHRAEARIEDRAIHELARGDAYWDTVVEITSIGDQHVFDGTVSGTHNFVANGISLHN

In patent publication US7553832B2, “Methods and compositions for specific inhibition of protein splicing by small molecules” (Boston Biomedical Research Institute, priority 2005, dated 2009):

Molecular target: M. tuberculosis DnaB intein (Mycobacterium tuberculosis, UniProt P9WMR3)
Assay: GFP-DnaB intein fusion fluorometric protein splicing assay
Conditions: read-out: DnaB intein IC50; fluorescent GFP-linked protein splicing, 5 to 40 μM tested

Row | SMILES | IC50
1 | O=C(c1c[nH]c(C(=O)C(Cl)(Cl)Cl)c1)c1c(Cl)cccc1Cl | 7 µM
2 | Cc1nn2c(c1[N+](=O)[O-])n1nc(C)c([N+](=O)[O-])c1n1nc(C)c([N+](=O)[O-])c21 | 11 µM
3 | Cc1cc(Sc2c([N+](=O)[O-])cc(C(F)(F)F)cc2[N+](=O)[O-])c(Cl)cc1Cl | < 5 µM
